Results deposited as PubChem BioAssay AID624099 (ICCB-Longwood, 2012)

- Screen: 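Knock-downs relieving repression by E2 of an HPV18 LCR luciferase reporter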 (primary screen)
- System: human C33A cervical carcinoma cells (HPV-negative) stably expressing BPV1 E2 and an HPV18 LCR luciferase reporter
- Knock-down reagent: siRNA pool against human genes, 40 nM
- Timing: 72 h
- Read-out: 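Per-well luciferase luminescence, z-scored on each plate against the plate mean and SD with control wells left out, then averaged across three replicate plates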
- Direction: mean z-score and z-score: higher = stronger reporter signal, weaker E2 silencing
- Hit rule: 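Mean z ≥ 2 together with z ≥ 2 in two or more of the three replicates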
The deposit covers about 21,000 reagents; below is a part drawn at random. Over the whole deposit, 497 (2.4%) got an active call. 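Higher z means weaker E2 silencing; only reporter increases were scored, and knock-downs that hurt cell survival may mask genuine repressor factors.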 Entries without a mark were called inactive. The numbers tell different reagents against one gene apart.

| Target gene | pool no. | mean z-score | z-score, replicate A | z-score, replicate B | z-score, replicate C |
| --- | --- | --- | --- | --- | --- |
| CDYL | 1 | -0.33 | -0.17 | -0.36 | -0.46 |
| NACA4P | 1 | -0.23 | -0.26 | -0.08 | -0.34 |
| FLJ12120 (retired record) | 1 | -0.73 | -0.72 | -0.55 | -0.92 |
| SKI | 1 | -0.1 | -0.17 | -0.04 | -0.08 |
| DYNLT3 | 1 | 1.03 | 1.25 | 0.89 | 0.94 |
| PAN3 | 1 | 0.79 | 1.04 | 0.61 | 0.73 |
| DET1 | 1 | 1.02 | 0.94 | 0.42 | 1.7 |
| ICOS | 1 | 0.77 | 0.55 | 0.98 | 0.77 |
| ST8SIA4 | 1 | 2.31 (active) | 2.1 | 2.24 | 2.58 |
| BLTP1 | 1 | 0.09 | 0.16 | -0.07 | 0.17 |
| JAM2 | 1 | -0.92 | -0.53 | -1.06 | -1.16 |
| LINC01684 | 1 | 0.35 | 0.03 | 0.83 | 0.18 |
| TPP1 | 1 | 0.77 | 0.43 | 0.92 | 0.95 |
| IKZF5 | 1 | -0.09 | 0.33 | 0 | -0.59 |
| GPR153 | 1 | -0.35 | -0.35 | -0.19 | -0.51 |
| GSN | 1 | 0.57 | 0.85 | 0.37 | 0.48 |
| SLAIN2 | 1 | 0.23 | -0.29 | 0.07 | 0.89 |
| PRKAG2 | 1 | 1.23 | 1.51 | 1.15 | 1.02 |
| ARHGAP27 | 1 | 0.24 | 0.11 | 0.15 | 0.47 |
| ARHGAP27 | 2 | 0.54 | 0.61 | 0.49 | 0.52 |
| IFT57 | 1 | -0.06 | -0.38 | -0.25 | 0.45 |
| GPRASP1 | 1 | 0.15 | 0.28 | 0.11 | 0.05 |
| LOC387994 (retired record) | 1 | 0.19 | 0.1 | 0.41 | 0.08 |
| HDGFL3 | 1 | 0.04 | 0.32 | 0.05 | -0.26 |
| TTC7B | 1 | -0.61 | -0.92 | -0.55 | -0.35 |
| TBCA | 1 | -0.23 | 0.19 | -0.22 | -0.65 |

Limited to “z-score, replicate C” (9 entries from above):
TPP1: 0.95
IKZF5: -0.59
GPR153: -0.51
GSN: 0.48
SLAIN2: 0.89
PRKAG2: 1.02
ARHGAP27 #1: 0.47
ARHGAP27 #2: 0.52
IFT57: 0.45

The list goes on:
| Target gene | pool no. | mean z-score | z-score, replicate A | z-score, replicate B | z-score, replicate C |
| --- | --- | --- | --- | --- | --- |
| GDF2 | 1 | -0.33 | -0.48 | -0.46 | -0.04 |
| MIR3150BHG | 1 | -0.17 | 0.49 | -0.67 | -0.34 |
| ZNF239 | 1 | 0.88 | 1.05 | 0.86 | 0.73 |
| FAM3C | 1 | -0.3 | -0.28 | -0.3 | -0.31 |
| HACD2 | 1 | -0.64 | -0.67 | -0.49 | -0.75 |
| HSPA1L | 1 | -0.8 | -0.72 | -0.74 | -0.96 |
| CYRIA | 1 | -0.21 | -0.44 | 0.55 | -0.75 |
| THEMIS | 1 | -0.17 | -0.23 | -0.3 | 0.01 |
| EFNA4 | 1 | -0.58 | -0.63 | -0.94 | -0.19 |
| PSMA4 | 1 | -0.28 | -0.79 | -0.09 | 0.03 |
| KRTAP5-9 | 1 | 2.13 (active) | 2.08 | 2.33 | 1.98 |
| INHBB | 1 | -1.44 | -1.34 | -1.47 | -1.52 |
| EDEM2 | 1 | -1.12 | -0.72 | -1.03 | -1.63 |
| RTL8A | 1 | 1.41 | 1.37 | 1.29 | 1.56 |
| ZNF84 | 1 | -0.33 | -0.47 | -0.08 | -0.43 |
| ADCY7 | 1 | -0.05 | 0.27 | -0.33 | -0.08 |
| ITIH2 | 1 | 0 | -0.11 | 0.23 | -0.1 |
| NOXA1 | 1 | 0.2 | 0.13 | 0.45 | 0.03 |
| TNFRSF14-AS1 | 1 | 0.3 | 0.15 | -0.01 | 0.76 |
| RAB35 | 1 | 0.95 | 0.98 | 0.82 | 1.05 |
| UNCX | 1 | 0.19 | 0.23 | 0.02 | 0.33 |
| OR5B17 | 1 | 2.21 (active) | 2.07 | 2.19 | 2.38 |
| NACC1 | 1 | 0.11 | 0.5 | 0.06 | -0.22 |
| POLH | 1 | 0.38 | 0.34 | 0.11 | 0.69 |
| OSTF1 | 1 | 0.06 | 0.1 | -0.22 | 0.31 |
| MTMR10 | 1 | 1.31 | 1.12 | 1.57 | 1.24 |
| IGFBP3 | 1 | 0.6 | 0.67 | 0.46 | 0.69 |
| MT1F | 1 | -0.87 | -0.69 | -0.97 | -0.94 |
| CD200R1 | 1 | 0.54 | 0.52 | 0.19 | 0.91 |
| MRRFP1 | 1 | 0.39 | 0.41 | 0.4 | 0.36 |
| ZNF48 | 1 | 0.1 | -0.05 | -0.16 | 0.5 |
